From the supplement of paper PMC3578754 come the findings set out here.

Fold change is the IC50 on the isolate divided by the IC50 on a reference virus; 1 = unchanged, higher = more resistant. Changes are given against the subtype B consensus. No active / inactive call. The values were gathered from many studies (numbered anew) with different assays, which the source does not name. Most viruses are clinical isolates; some are laboratory strains or clones with known resistance changes. Isolates with mixed residues are left out; stretches that were not sequenced show no change. Round top values that many isolates share are read here as limits; other very high values and 0.1 may be limits too. The protease changes I3V and N37S, insertions and deletions cannot be read from the source. Bounds are passed on as bounds.

What all share (test): fold change of IC50 against reference virus; higher = more resistant; Cell-culture drug susceptibility tests of virus bearing the protease of each isolate, gathered from many studies.
Compound in one experiment: CC(C)(C)NC(=O)[C@@H]1C[C@@H]2CCCC[C@@H]2CN1C[C@@H](O)[C@H](Cc1ccccc1)NC(=O)[C@H](CC(N)=O)NC(=O)c1ccc2ccccc2n1 [saquinavir]
Compound in another experiment: Cc1cccc(C)c1OCC(=O)N[C@@H](Cc1ccccc1)[C@@H](O)C[C@H](Cc1ccccc1)NC(=O)[C@H](C(C)C)N1CCCNC1=O [lopinavir]
Compound in another experiment: COC(=O)N[C@H](C(=O)N[C@@H](Cc1ccccc1)[C@@H](O)CN(Cc1ccc(-c2ccccn2)cc1)NC(=O)[C@@H](NC(=O)OC)C(C)(C)C)C(C)(C)C [atazanavir]
Compound in a further experiment: CCC[C@@]1(CCc2ccccc2)CC(O)=C([C@H](CC)c2cccc(NS(=O)(=O)c3ccc(C(F)(F)F)cn3)c2)C(=O)O1 [tipranavir]
Compound in another experiment: CC(C)(C)NC(=O)[C@@H]1CN(Cc2cccnc2)CCN1C[C@@H](O)C[C@@H](Cc1ccccc1)C(=O)N[C@H]1c2ccccc2C[C@H]1O [indinavir]
Compound in a further experiment: Cc1c(O)cccc1C(=O)N[C@@H](CSc1ccccc1)[C@H](O)CN1C[C@H]2CCCC[C@H]2C[C@H]1C(=O)NC(C)(C)C [nelfinavir]
Compound in the next experiment: CC(C)c1nc(CN(C)C(=O)N[C@H](C(=O)N[C@@H](Cc2ccccc2)C[C@H](O)[C@H](Cc2ccccc2)NC(=O)OCc2cncs2)C(C)C)cs1 [ritonavir]

Regarding “HIV-1 isolate 1375 (protease changes: T12A I13V L63P, study 64)”, the “fold change of IC50 against reference virus” value (shortened to “fold change of IC50”) with saquinavir was 1.1; with lopinavir, 1.3; in the experiment with atazanavir it was 1.1; with tipranavir, 1.4; in the experiment with indinavir, 1.6; with nelfinavir, 1.4. The “fold change of IC50” value in the experiment with ritonavir came to 0.8.
For “HIV-1 isolate 560 (protease changes: K14R R41K L63P A71T I72E V77I I93L, study 15)”, the “fold change of IC50” value in the experiment with saquinavir turned out to be 0.9; with lopinavir, 0.6; with atazanavir it was 0.8; with tipranavir, 0.9; in the experiment with indinavir, 1; with nelfinavir, 1.4. For the same test system, the “fold change of IC50” value with ritonavir came to 0.8.
“HIV-1 isolate 1366 (protease changes: L10I L24I L33F E35D M36I R41P K45R M46I I50L L63P I64V H69Y A71V V82S I93L, study 15)”: the “fold change of IC50” value came out at 0.9 with saquinavir; 7.5 in the experiment with lopinavir; 208 with atazanavir; 0.6 in the experiment with tipranavir; 6.7 in the experiment with indinavir; 6.6 with nelfinavir. The “fold change of IC50” value in the experiment with ritonavir was determined as 36.
Turning to “HIV-1 isolate 37 (protease changes: L33I I62V L63T I64L A71V I72T I93L, study 64)”, the “fold change of IC50” value worked out at 0.9 with saquinavir; 0.7 in the experiment with lopinavir; 0.9 with atazanavir; 1.2 with tipranavir; 1.1 in the experiment with indinavir; 1.4 with nelfinavir. For the same test system, the “fold change of IC50” value with ritonavir was 0.9.
As for “HIV-1 isolate 1078 (protease changes: L19Q M36I N37C I62V L63P I64V, study 64)”, the “fold change of IC50” value was 0.8 with saquinavir; 1.1 in the experiment with lopinavir; 0.8 with atazanavir; 1.3 with tipranavir; 1.1 in the experiment with indinavir; 1.7 with nelfinavir. Moreover, the “fold change of IC50” value with ritonavir turned out to be 1.
For the test system “HIV-1 isolate 1464 (protease changes: K14R N37D R41K I62V L63A V77I I93L, study 64)”, the “fold change of IC50” value was determined as 0.7 with saquinavir; 0.4 with lopinavir; 0.7 with atazanavir; 0.7 with tipranavir; 0.8 with indinavir; 1.4 with nelfinavir. In addition, the “fold change of IC50” value in the experiment with ritonavir was 0.7.
Take “HIV-1 isolate 1327 (protease changes: I13V K14R I15V G16A E35D N37D L63P, study 64)”: the “fold change of IC50” value with saquinavir worked out at 0.7; with lopinavir it was 0.6; with atazanavir, 0.7; with tipranavir it was 0.8; with indinavir, 0.6; with nelfinavir it was 0.7. In the experiment with ritonavir, the “fold change of IC50” value amounted to 0.7.
On to “HIV-1 isolate 317 (protease changes: I62V L63S, study 64)”, for which the “fold change of IC50” value with saquinavir turned out to be 0.6; in the experiment with lopinavir, 0.8; with atazanavir, 0.8; with tipranavir, 0.6; with indinavir, 0.7; in the experiment with nelfinavir, 0.9. For the same test system, the “fold change of IC50” value with ritonavir was 0.8.
For “HIV-1 isolate 1191 (protease changes: I13V N37T L63E I64V E65D V77I, study 64)”, the “fold change of IC50” value in the experiment with saquinavir was found to be 0.6; in the experiment with lopinavir, 0.4; in the experiment with atazanavir, 0.6; in the experiment with tipranavir, 0.5; in the experiment with indinavir, 0.7; in the experiment with nelfinavir, 0.9. In addition, the “fold change of IC50” value with ritonavir was 0.7.
“HIV-1 isolate 284 (protease changes: E35D L63P, study 64)”: the “fold change of IC50” value was found to be 1 with saquinavir; 0.8 with lopinavir; 1.2 in the experiment with atazanavir; 0.7 with tipranavir; 1 with indinavir; 1.2 with nelfinavir. Moreover, in the experiment with ritonavir, the “fold change of IC50” value is 1.
Consider “HIV-1 isolate 1331 (protease changes: I13V K14R, study 64)”, for which the “fold change of IC50” value with saquinavir stood at 0.4; with lopinavir, 0.4; in the experiment with atazanavir, 0.5; with tipranavir it was 0.5; in the experiment with indinavir, 0.5; with nelfinavir, 0.4. Further, the “fold change of IC50” value with ritonavir worked out at 0.4.
With “HIV-1 isolate 331 (protease changes: L10I I13V V32I L33F M36I R41K I47A L63P K70E A71V V82A L90M I93L, study 64)”, the “fold change of IC50” value with saquinavir is 0.5; in the experiment with lopinavir, at least 500; with atazanavir, 4.4; in the experiment with tipranavir, 3.5; in the experiment with indinavir it was 21; with nelfinavir, 9. Further, the “fold change of IC50” value with ritonavir was determined as 34.
For “HIV-1 isolate 1614 (protease changes: L10I E35D K43T I54M D60E I62V L63P I72V V82M L90M I93L, study 64)”, the “fold change of IC50” value with saquinavir worked out at 2; with lopinavir, 5.9; with atazanavir, 13; with tipranavir, 3; with indinavir, 8.6; in the experiment with nelfinavir it was 13. For the same test system, the “fold change of IC50” value with ritonavir stood at 17.
For the test system “HIV-1 isolate 1595 (protease changes: K20R E35D M36I N37D F53L L63P H69K A71T I72V V77I V82A, study 15)”, the “fold change of IC50” value with saquinavir amounted to 0.4; with lopinavir, 1.6; with atazanavir, 1.1; with tipranavir, 0.3; with indinavir, 1.2; in the experiment with nelfinavir it was 1.6. In the experiment with ritonavir, the “fold change of IC50” value came to 7.5.
Take “HIV-1 isolate 769 (protease changes: I13V K20T E35D M36I I62V L63P A71T T74S L90M Q92K, study 15)”: the “fold change of IC50” value worked out at 12 with saquinavir; 5.3 with lopinavir; 23 in the experiment with atazanavir; 4.8 in the experiment with tipranavir; 11 with indinavir; 56 in the experiment with nelfinavir. Also, the “fold change of IC50” value with ritonavir was 36.
“HIV-1 isolate 983 (protease changes: L10I E35D M36I R41K I62V L63P A71V T74P L90M I93L, study 64)”: the “fold change of IC50” value with saquinavir turned out to be 6; with lopinavir, 2.5; in the experiment with atazanavir, 6.4; with tipranavir, 1.9; with indinavir it was 4.8; with nelfinavir, 15. Also, the “fold change of IC50” value with ritonavir was 8.3.
For the test system “HIV-1 isolate 1152 (protease changes: L10V I13V I15V L19I K20T V32I M36I M46I I47V Q58E L63P I64V I84V Q92K, study 64)”, the “fold change of IC50” value in the experiment with saquinavir was determined as 5.5; with lopinavir, 78; with atazanavir, 33; in the experiment with tipranavir, 16; with indinavir, 17; with nelfinavir, 29. The “fold change of IC50” value in the experiment with ritonavir amounted to 34.
Take “HIV-1 isolate 221 (protease changes: L10I I13V K20I L33V M46L L63P A71T I72V T74K I85V N88D L90M I93L, study 64)”: the “fold change of IC50” value with saquinavir was 68; with lopinavir it was 2; with atazanavir, 25; with tipranavir, 0.7; with indinavir, 15; in the experiment with nelfinavir, 82. In the experiment with ritonavir, the “fold change of IC50” value was determined as 6.5.
